Results published in the NIST ThermoML archive (doi:10.1016/j.fluid.2010.04.016).
Values joined by “and” are separate entries in the source; they are usually repeats but may differ in a detail not shown here. Identical values can stand only once. Numbers after ± are expanded uncertainties.

Conditions: Crystal; visual observation

CCCCOP(=O)(OCCCC)OCCCC [tributyl phosphate]
Normal melting temperature: -78.9 ± 0.16 °C and -78.84 ± 0.2 °C
